A mixed list of measured activities; the numbers were collected in NIAID ChemDB.

Shared fields: growth or infection tests; organism: HIV-1; endpoint: fold resistance

Conditions beyond the fields shown may differ between rows. An empty or dashed field is not shown. Fold resistance: result on the changed form divided by that on wild type.

| compound | changes | read by | strain or isolate | cells | value |
|---|---|---|---|---|---|
| Cc1cc(Cl)cc(S(=O)(=O)c2cccc(N)c2C#N)c1 | RT-V108I Y181C | β-galactosidase |  | HeLa + HELA CD4+ | 2000 |
| Nc1nc(=O)n([C@@H]2CS[C@H](CO)O2)cc1F | RT-T69N K70R Q151M T215Y |  |  |  | ~5 |
| CCN(c1nc(F)ccc1NC(C)(C)C)C1CCN(C(=O)c2cc3cc(NC(=O)N4CCN(C)CC4)ccc3[nH]2)CC1 | D437N L441P | p24 / ELISA | IIIB | MT-2 | 1.5 |
| CC(C)=CCN1c2cc(Cl)cc3[nH]c(=S)n(c23)C[C@@H]1C | RT-D67N K70R T215Y K219Q A98G |  |  | MT-4 | 2 |
| O=c1[nH]cnc2c1ncn2[C@H]1CC[C@@H](CO)O1 | RT-D67N K70R T215Y K219Q | plaque count | RTMC | HT4 + HT4 LacZ-1 | 1.43 |
| CCOP(=O)(COc1ccc(C[C@H](NC(=O)O[C@H]2CO[C@H]3OCC[C@H]32)[C@H](O)CN(CC(C)C)S(=O)(=O)c2ccc(OC)cc2)cc1)OCC | 8374-P62 GS-8374-resistant | ATP | IIIB | MT-2 | 14.1 |
| Nc1nc(=O)n([C@@H]2CS[C@H](CO)O2)cc1F | RT-Y181C M184V | plaque count | HXB2 | HT4 + HT4 LacZ-1 | >5560 |
| Fc1cccc(F)c1[C@H]1SCc2nc3ccccc3n21 | RT-D138K | cytopathic effect / XTT | IIIB | CEM | 1.4 |
| CCCc1nnc(C[C@H](C[C@H](O)CN2CCN(Cc3ccc(-c4ccc(Cl)cc4)o3)C[C@H]2C(=O)NCC(F)(F)F)C(=O)N[C@H]2c3ccccc3OC[C@H]2O)o1 | PR-L10I N37S R41K M46I I54V I62V L63P A71V V77I V82A L90M I93L | p24 | Q-60 Clinical isolate | MT-4 | ≥2 |
| O=[N+]([O-])c1ccccc1S(=O)(=O)c1ccccc1 | RT-K103N Y181C | cytopathic effect / XTT | IIIB(A17(III)) | CEM + CEM-SS | 60 |
| Cc1cc(O)cc(S(=O)(=O)c2cccc(N)c2C#N)c1 | RT-G190A | β-galactosidase |  | HeLa + HELA CD4+ | 10.5 |
| Nc1ncnc2c1ncn2CCOCP(=O)(O)O | RT-L74V |  | DXG 9X(RT-L74V) |  | 1 |
| CC(C)(c1ncc(-c2ccc(Cl)cc2)o1)N1CCN(C[C@@H](O)C[C@@H](Cc2nnc(-c3ccccc3)o2)C(=O)N[C@H]2c3ccccc3OC[C@H]2O)[C@H](C(=O)NCC(F)(F)F)C1 | PR-L10I M36I N37D M46I R57K L63P A71V G73S I84V L90M I93L | p24 | V-18 Clinical isolate | MT-4 | ≥15.6 |
| Nc1nc2c(ncn2[C@H]2CO[C@@H](CO)O2)c(=O)[nH]1 | RT-M184V T215Y K219Q |  | RT M184V T215Y K219Q |  | 1.1 |
| Nc1nc(NC2CC2)c2ncn([C@H]3C=C[C@@H](CO)C3)c2n1 | RT-M41L V118I M184V | luciferase | Recombinant | HeLa | 2.6 |
| Cc1c(Sc2ccccc2)n(COCCO)c(=O)[nH]c1=O | RT-L100I | cytopathic effect / XTT | IIIB | CEM + CEM-SS | >11 |
| O=S1(c2ccccc2)=NC(=S)Nc2ccccc21 | RT-V108I | cytopathic effect / XTT | IIIB(THZ-R(I)) | CEM + CEM-SS | 42 |
| Cc1cn([C@@H]2O[C@H](CO[Si](C)(C)C(C)(C)C)[C@@]3(OS(=O)(=O)C=C3N)[C@H]2O[Si](C)(C)C(C)(C)C)c(=O)[nH]c1=O | RT-E138K | syncytia | IIIB TSAO-T(RT-E138K) | CEM | 133 |
| Cc1cn([C@H]2C[C@H](N=[N+]=[N-])[C@@H](CO)O2)c(=O)[nH]c1=O | RT-P236L | cytopathic effect / XTT | IIIB HEPT-resistant (IV) | CEM + CEM-SS | 0.7 |
| Cc1cn([C@@H]2O[C@H](CO[Si](C)(C)C(C)(C)C)C3(OS(=O)(=O)C=C3N)[C@H]2O[Si](C)(C)C(C)(C)C)c(=O)n(C)c1=O | RT-L100I Y188H | syncytia | IIIB TIBO R82913 STR-B22 (RT L100I Y188H) | CEM | ≥1670 |
| O=c1[nH]cnc2c1ncn2[C@H]1CC[C@@H](CO)O1 | RT-M41L M184V T215Y | plaque count | RTMN(184) (RT M41L M184V T215Y) | HT4 + HT4 LacZ-1 | 3.89 |
| Fc1cccc(F)c1C1SCc2nc3ccccc3n21 | RT-Y181C | cytopathic effect / XTT | UC040-R (RT-Y181C) | CEM + CEM-SS | >20.3 |
| CCc1c(Sc2ccccn2)n(COCc2ccccc2)c(=O)[nH]c1=O | RT-P236L | cytopathic effect / XTT | IIIB HEPT-resistant (RT P236L) | CEM + CEM-SS | 20 |
| CCc1cc(NCc2nc3c(Cl)ccc(Cl)c3o2)c(=O)[nH]c1C | RT-K10D K103N | p24 | NL4-3 | MT-4 | >30 |
| Cc1occc1C(=S)Nc1ccc(Cl)c(/C=N/OC(C)(C)C)c1 | RT-A98G V108I | cytopathic effect / XTT | TIBO R82150-resistant (RT A98G V108I) | CEM + CEM-SS | 5.5 |
| N#Cc1cc2[nH]c3ccccc3c2n(-c2ccc([N+](=O)[O-])cc2)c1=O | RT-M41L V118I M184V | luciferase | Recombinant | HeLa | 6.5 |
| Cc1cc(Br)cc(S(=O)(=O)c2cccc(N)c2C#N)c1 | RT-Y188C | β-galactosidase |  | HeLa + HELA CD4+ | 19.1 |
| O=C1O[C@H]2[C@@H]3OC(=O)c4cc(O)c(O)c(O)c4-c4c(cc(O)c(O)c4O)C(=O)OC[C@H]2O[C@@H](OC(=O)c2cc(O)c(O)c(O)c2)[C@@H]3OC(=O)c2cc(O)c(O)c3c2[C@@H]2C1=CC(=O)[C@](O)(O3)C2(O)O | RT-L100I |  | NNRTI-resistant (RT L100I) ARP1016 | MAGI | 2.19 |
| CC(C)Nc1cccnc1N1CCN(C(=O)c2cc3cc(NS(C)(=O)=O)ccc3[nH]2)CC1 | RT-K101E | cytopathic effect | C-1 (RT-K101E) | CEM | 1 |
| O=c1[nH]cnc2c1ncn2[C@H]1CC[C@@H](CO)O1 | RT-K103N | syncytia | IIIB TIBO R82913 STR-2 (RT K103N) | CEM | 1.5 |
| Cc1cc(S(N)(=O)=O)ccc1NC(=O)COc1ccc(Cl)cc1C(=O)c1cc(Cl)cc(C#N)c1 | RT-P236L | β-galactosidase | NNRTI-resistant (RT P236L) | MAGI | 2.1 |
| O=C(N[C@H]1c2ccccc2OC[C@H]1O)[C@H](Cc1nnc(-c2ccccc2)o1)C[C@H](O)CN1CCN(Cc2ccc(-c3ccc(Cl)cc3)o2)C[C@H]1C(=O)NCC(F)(F)F | PR-L10I N37S R41K M46I I54V I62V L63P A71V V77I V82A L90M I93L | p24 | Q-60 Clinical isolate | MT-4 | 4 |
| Cn1c2ccccc2c2c1cc(C#N)c(=O)n2-c1ccc([N+](=O)[O-])cc1 | RT-K103N | luciferase | NNRTI-resistant | HeLa | 0.5 |
| COc1cc(C(F)(F)F)cc(S(=O)(=O)c2cccc(N)c2C#N)c1 | RT-Y181C | β-galactosidase |  | HeLa + HELA CD4+ | 929 |
| Nc1ncnc2c1ncn2CCOCP(=O)(O)O | RT-L74V |  |  |  | 1 |
| CCc1c(C(=O)c2cc(C)cc(C)c2)n(CC2CC=CC2)c(=O)[nH]c1=O | RT-D67N K70R T215Y K219Q | cytopathic effect / XTT | 4xAZT(RT-D67N K70R T215Y K219Q) | CEM + CEM-SS | 0.3 |
| Cc1ccc(S(=O)(=O)N(CC(C)C)C[C@@H](O)[C@H](Cc2ccccc2)NC(=O)O[C@H]2CO[C@H]3OCC[C@H]32)cc1 | M200I | p24 / ELISA | IIIB | MT-2 | 0.8 |
| Nc1ccn([C@H]2CC[C@@H](CO)O2)c(=O)n1 | RT-V75I F77L Q151M | p24 | Recombinant | PBMC | 0.06 |
| CC[C@H]1C(=O)Nc2ccc(F)cc2N1C(=O)OC(C)C | RT-L100I | cytopathic effect | A-0 (RT-L100I) | CEM | 1 |
| Nc1ccn([C@H]2CC[C@@H](CO)O2)c(=O)n1 | RT-M41L D67N T69D L210W T215Y | plaque count | JF26 (RT M41L D67N T69D L210W T215Y) | HELA-CD4+ | 0.95 |
| Nc1ncnc2c1ncn2CCOCP(=O)(O)O | RT-L100I Y181C | syncytia | IIIB TIBO R82913 STR-1 (RT L100I Y181C) | CEM | 3.57 |
| Cc1cn([C@H]2C[C@H](N=[N+]=[N-])[C@@H](CO)O2)c(=O)[nH]c1=O | RT-D67N K70R L100I T215Y K219Q | cytopathic effect / XTT | 4XAZT+L100I (RT D67N K70R L100I T215Y K219Q) | CEM + CEM-SS | 20 |
| CC1=C(C(=O)Nc2ccc(Cl)c(C(=O)OC(C)C)c2)SCCO1 | RT-Y181C | cytopathic effect / XTT | IIIB(DPS-R(III)) | CEM + CEM-SS | 11 |
| Nc1nc2c(ncn2[C@H]2CO[C@@H](CO)O2)c(=O)[nH]1 | RT-M41L D67N M184V L210W T215Y |  |  |  | ~1.8 |
| Fc1cccc(F)c1C1SCc2nc3ccccc3n21 | RT-D138K | cytopathic effect / XTT | IIIB | CEM | 1.24 |
| Nc1ccn([C@H]2CC[C@@H](CO)O2)c(=O)n1 | RT-D67N K70R V108A I135T T215Y |  | IIIB-AZT-1 (RT D67N K70R V108A I135T T215Y) | MT-4 | 1.57 |
| Nc1ccn([C@@H]2CS[C@H](CO)O2)c(=O)n1 | RT-V75I F77L F116Y Q151M | p24 | Recombinant | PBMC | 0.05 |
| CCCN(C)C(=O)Oc1nsnc1-c1c(Cl)ccc(N)c1Cl | RT-Y181C | MTT | IIIB | MAGI | 84.2 |
| O=c1[nH]cnc2c1ncn2[C@H]1CC[C@@H](CO)O1 | RT-M184V | p24 | HXB2D (RT-M184V) | MT-4 | 5.37 |
| CC(C)(c1ncc(-c2ccc(F)cc2)o1)N1CCN(C[C@@H](O)C[C@@H](Cc2nnc(-c3ccccc3)o2)C(=O)N[C@H]2c3ccccc3OC[C@H]2O)[C@H](C(=O)NCC(F)(F)F)C1 | PR-L10I M46I I54V Q58E L63P I64V V77I V82F I84V L90M I93L | p24 | K-60 Clinical isolate | MT-4 | 1 |
| C/C=C/CSc1cc(NC(=S)c2ccsc2C)ccc1Cl | RT-Y181C | cytopathic effect / XTT | UC82-R (RT-Y181C) | CEM + CEM-SS | >33.3 |
| C[C@H](Cn1cnc2c(N)ncnc21)OCP(=O)(O)O | RT-D67N K70R T215Y K219Q | p24 | G691-2 AZT-resistant (RT D67N K70R T215Y K219Q) | MT-2 | 0.306 |
| Cc1cn([C@H]2C[C@H](N=[N+]=[N-])[C@@H](CO)O2)c(=O)[nH]c1=O | RT-E138K | syncytia | IIIB TSAO-T(RT-E138K) | CEM | 3 |
| Fc1cccc(F)c1[C@@H]1SCc2nc3ccccc3n21 | RT-K103N | cytopathic effect / XTT | IIIB | CEM | 2.18 |
| Cc1ccnc2c1NC(=O)c1cccnc1N2C1CC1 | RT-K103N Y144F | cytopathic effect | P-1 (RT-K103N Y144F) | CEM | 402 |

6 of the rows above, restated:

compound	changes	read by	strain or isolate	cells	value
CC1=C(C(=O)Nc2ccc(Cl)c(C(=O)OC(C)C)c2)SCCO1	RT-Y181C	cytopathic effect / XTT	IIIB(DPS-R(III))	CEM + CEM-SS	11
Cc1cn([C@H]2C[C@H](N=[N+]=[N-])[C@@H](CO)O2)c(=O)[nH]c1=O	RT-E138K	syncytia	IIIB TSAO-T(RT-E138K)	CEM	3
Nc1ncnc2c1ncn2CCOCP(=O)(O)O	RT-L100I Y181C	syncytia	IIIB TIBO R82913 STR-1 (RT L100I Y181C)	CEM	3.57
COc1cc(C(F)(F)F)cc(S(=O)(=O)c2cccc(N)c2C#N)c1	RT-Y181C	β-galactosidase		HeLa + HELA CD4+	929
O=c1[nH]cnc2c1ncn2[C@H]1CC[C@@H](CO)O1	RT-M41L M184V T215Y	plaque count	RTMN(184) (RT M41L M184V T215Y)	HT4 + HT4 LacZ-1	3.89
Cc1cc(Br)cc(S(=O)(=O)c2cccc(N)c2C#N)c1	RT-Y188C	β-galactosidase		HeLa + HELA CD4+	19.1